A mixed list of measured activities; the numbers were collected in NIAID ChemDB.

All rows: growth or infection tests; organism: Candida parapsilosis

ECn: concentration that inhibits the pathogen or its effect by n%.

C[C@@H](c1ncncc1F)[C@](O)(Cn1cncn1)c1ccc(F)cc1F ; read by: broth dilution ; endpoint: MIC90 ; value: 0.25 µg/mL
COc1ccc(C(c2ccc(OC)cc2)n2ccnc2)cc1 ; read by: agar ; endpoint: MIC90 ; value: >256 µg/mL
COc1ccc(/C=N\O)cc1 ; read by: broth dilution ; endpoint: MIC100 ; value: 3310 µM
CCCCCOc1ccc(-c2cc(-c3ccc(C(=O)N[C@H]4C[C@@H](O)[C@@H](O)NC(=O)[C@@H]5[C@@H](O)[C@@H](C)CN5C(=O)[C@H]([C@H](O)CC(N)=O)NC(=O)[C@H]([C@H](O)[C@@H](O)c5ccc(O)c(OS(=O)(=O)O)c5)NC(=O)[C@@H]5C[C@@H](O)CN5C(=O)[C@H]([C@@H](C)O)NC4=O)cc3)no2)cc1 ; read by: broth dilution ; endpoint: MIC50 ; value: 1 µg/mL
CC1SC(c2ccccn2)N(C(C)C(=O)O)C1=O ; read by: broth dilution ; endpoint: EC50 ; value: 98.25 µM
O=C(/C=C/c1cccc(Cl)c1)OC1CCN(CC(O)(Cn2cncn2)c2ccc(F)cc2F)CC1 ; read by: broth dilution ; endpoint: MIC80 ; strain: 0306392 ; value: 0.124 µM
O=C(O)C(Cc1ccccc1)N1C(=O)CCSC1c1ccccc1 ; read by: broth dilution ; endpoint: EC50 ; value: 56.28 µM
C=CCc1ccc(O)c(OC)c1 ; read by: turbidity ; endpoint: MIC90 ; strain: 2559 ; value: 500 µg/mL
Clc1ccc(C(c2ccccc2)N2CCN(CCn3ccnc3)CC2)cc1 ; read by: agar ; endpoint: MIC90 ; value: >256 µg/mL
CC(C)(O)c1cn(-c2ccc([N+](=O)[O-])cc2)nn1 ; read by: broth dilution ; endpoint: inhibition ; dose: 2048 µg/mL ; strain: URM 4970 ; value: 0%
O=C(c1ccccc1)C(c1ccccc1)n1cnc2ccccc21 ; read by: broth dilution ; endpoint: MFC ; value: 128 µg/mL
O/N=C\c1ccccc1Cl ; endpoint: MIC100 ; value: 1420 µM
CC(C)CC(C(=O)O)N1C(=O)CSC1c1ccccc1 ; read by: broth dilution ; endpoint: EC50 ; value: 57.23 µM
Cc1ccc(/C=C/C(=O)OC2CCN(CC(O)(Cn3cncn3)c3ccc(F)cc3F)CC2)cc1 ; read by: broth dilution ; endpoint: MIC80 ; strain: 0306392 ; value: 0.13 µM
c1ccc(C(c2ccccc2)n2nnc3ccccc32)cc1 ; read by: broth dilution ; endpoint: MFC ; value: >256 µg/mL
CCCC(=O)OC1CCN(CC(O)(Cn2cncn2)c2ccc(F)cc2F)CC1 ; read by: broth dilution ; endpoint: MIC80 ; strain: 0306392 ; value: 0.153 µM
CC(C(=O)O)N1C(=O)CSC1c1ccccn1 ; read by: broth dilution ; endpoint: EC50 ; value: 20.22 µM
CC(C)(O)c1cn(-c2ccccc2)nn1 ; read by: broth dilution ; endpoint: inhibition ; dose: 2048 µg/mL ; strain: URM 4970 ; value: 0%
O/N=C\c1ccc(F)cc1 ; endpoint: MIC100 ; value: 3600 µM
O=C(O)C(Cc1ccccc1)N1C(=O)CSC1c1ccccc1 ; read by: broth dilution ; endpoint: EC50 ; value: 52.9 µM
CC(C)(O)c1cn(-c2ccc3ccccc3c2)nn1 ; read by: broth dilution ; endpoint: inhibition ; dose: 2048 µg/mL ; strain: URM 3624 ; value: 0%
C[C@@H](c1ncncc1F)[C@](O)(Cn1cncn1)c1ccc(F)cc1F ; read by: broth dilution ; endpoint: MIC80 ; strain: 0306392 ; value: 0.045 µM
Nc1ncccc1-c1cc(Cc2ccc(COc3ccccn3)cc2)no1 ; read by: broth dilution ; endpoint: MIC50 ; value: 0.03 µg/mL
c1ccc(C(c2ccccc2)n2ccnc2)cc1 ; read by: agar ; endpoint: MIC90 ; value: 0.5 µg/mL
CCC(C)n1ncn(-c2ccc(N3CCN(c4ccc(OC[C@H]5CO[C@](Cn6cncn6)(c6ccc(Cl)cc6Cl)O5)cc4)CC3)cc2)c1=O ; read by: broth dilution ; endpoint: MIC80 ; strain: 0306392 ; value: 0.354 µM
O=C(c1ccccc1)C(c1ccccc1)n1ccnc1 ; read by: broth dilution ; endpoint: MFC ; value: >256 µg/mL
Cc1ccc(-n2cc(C(C)(C)O)nn2)cc1C ; read by: broth dilution ; endpoint: inhibition ; dose: 2048 µg/mL ; strain: URM 4804 ; value: 0%
C[C@@H](c1ncncc1F)[C@](O)(Cn1cncn1)c1ccc(F)cc1F ; read by: broth dilution ; endpoint: MIC90 ; value: 0.016 µg/mL
O=C(/C=C/c1ccc(F)cc1)OC1CCN(CC(O)(Cn2cncn2)c2ccc(F)cc2F)CC1 ; read by: broth dilution ; endpoint: MIC80 ; strain: 0306392 ; value: 0.129 µM
COc1ccc(C(c2ccc(OC)cc2)n2cncn2)cc1 ; read by: agar ; endpoint: MIC90 ; value: >256 µg/mL
CCCCCCCCC(=O)OC1CCN(CC(O)(Cn2cncn2)c2ccc(F)cc2F)CC1 ; read by: broth dilution ; endpoint: MIC80 ; strain: 0306392 ; value: 0.538 µM
C/C(=N/O)C(Cl)(Cl)Cl ; endpoint: MIC100 ; value: 6450 µM

Repeating the final 4 entries:

compound,read by,endpoint,dose,strain,value
O=C(/C=C/c1ccc(F)cc1)OC1CCN(CC(O)(Cn2cncn2)c2ccc(F)cc2F)CC1,broth dilution,MIC80,,0306392,0.129 µM
COc1ccc(C(c2ccc(OC)cc2)n2cncn2)cc1,agar,MIC90,,,>256 µg/mL
CCCCCCCCC(=O)OC1CCN(CC(O)(Cn2cncn2)c2ccc(F)cc2F)CC1,broth dilution,MIC80,,0306392,0.538 µM
C/C(=N/O)C(Cl)(Cl)Cl,,MIC100,,,6450 µM

An empty or dashed field is not shown. Conditions beyond the fields shown may differ between rows. Inhibition is in % at the dose shown (toxicity tests: loss of growth or viability). MIC50, MIC90 and the like: level of inhibition, or share of isolates inhibited.